Compound potency records, mixed from different reports. Data source: NIAID ChemDB in PubChem.

Common to all: tests in culture; agent: Human cytomegalovirus

Neighbouring rows are from separate reports.

O=C(NCc1ccc(Cl)cc1)c1c[nH]c2c(F)cccc2c1=O ; strain or isolate: Clinical isolates ; read by: plaque count ; measure: EC90 ; result: >40 µM
OC[C@H]1O[C@@H](n2c(Br)nc3cc(Cl)c(Cl)cc32)[C@H](O)[C@@H]1O ; strain or isolate: D10 (D341E) ; read by: virus yield ; measure: EC95 ; result: 2 µM
Nc1ncnc2c1ncn2[C@@H]1O[C@H](CO)[C@@H](O)[C@@H]1O ; cells: HEL ; dose: 1 µM ; read by: plaque count ; measure: inhibition ; result: 24.2%
O=C(NCc1ccc(Cl)cc1)c1c[nH]c2ccc(C#CCO)cc2c1=O ; strain or isolate: SAL ; read by: plaque count ; measure: EC50 ; result: 1.1 µM
O=C(NCc1ccc(Cl)cc1)c1c[nH]c2ccc(CCCO)cc2c1=O ; strain or isolate: Clinical isolates ; read by: plaque count ; measure: EC90 ; result: 5.8 µM
Cn1cc(C(=O)NCc2ccc(Cl)cc2)c(=O)c2cc(CN3CCOCC3)ccc21 ; cells: HFF ; dose: 6.9 µM ; strain or isolate: SA ; read by: plaque count ; measure: inhibition ; result: 90%
Nc1nc2c(ncn2COC(CO)CO)c(=O)[nH]1 ; cells: MRC-5 ; strain or isolate: C9207 ; read by: hybridisation ; measure: EC50 ; result: 0.15 µM
Nc1ccn(C[C@H]2COP(=O)(O)CO2)c(=O)n1 ; cells: MRC-5 ; strain or isolate: PC92 (ganciclovir- foscarnet-susceptible) ; read by: plaque count ; measure: EC75 ; result: 0.67 µM
OC[C@H]1O[C@@H](n2c(Br)nc3cc(Cl)c(Cl)cc32)[C@H](O)[C@@H]1O ; cells: MRC-5 ; strain or isolate: XBAF.4 (alaalacysarg593DEL) ; read by: hybridisation ; measure: EC50 ; result: 0.2 µM
Nc1nc2c(ncn2[C@@H]2C[C@H](CO)[C@H]2CO)c(=O)[nH]1 ; cells: MRC-5 ; strain or isolate: AD169 (ganciclovir foscarnet-susceptible) ; read by: plaque count ; measure: EC75 ; result: 7.23 µM
Clc1ccc(Nc2ncnc3ccccc23)cc1Cl ; cells: HFF ; dose: 1.1 µM ; strain or isolate: AD169-GFP ; read by: plaque count ; measure: inhibition ; result: 25%
Nc1nc2c(ncn2COC(CO)CO)c(=O)[nH]1 ; cells: MRC-5 ; strain or isolate: PAAR ; read by: plaque count ; measure: EC75 ; result: 7.44 µM
Nc1nc2c(ncn2COC(CO)CO)c(=O)[nH]1 ; strain or isolate: AD169 ; read by: plaque count ; measure: EC50 ; result: 3.8 µM
Nc1ccn(C[C@H]2COP(=O)(O)CO2)c(=O)n1.O=C(O)P(=O)(O)O ; cells: MRC-5 ; strain or isolate: AD169 (ganciclovir foscarnet-susceptible) ; read by: plaque count ; measure: EC75 ; result: 0.93 µM
Nc1nc2c(ncn2COCCO)c(=O)[nH]1 ; cells: HEL ; dose: 20 µM ; read by: plaque count ; measure: inhibition ; result: 35%

A second listing of 2 rows from above:

SMILES	cells	dose	strain or isolate	read by	measure	result
Nc1nc2c(ncn2[C@@H]2C[C@H](CO)[C@H]2CO)c(=O)[nH]1	MRC-5	-	AD169 (ganciclovir foscarnet-susceptible)	plaque count	EC75	7.23 µM
Nc1nc2c(ncn2COC(CO)CO)c(=O)[nH]1	-	-	AD169	plaque count	EC50	3.8 µM

Percent inhibition refers to the dose given; in toxicity tests it is the harm to the cells. An empty or dashed field is not shown. ECn is the concentration giving n% inhibition of infection, replication or growth.